This passage reports IC50, cell killing activity and IC50 cell killing results from patent US20220054643A1, “SAPONIN CONJUGATED TO EPITOPE-BINDING PROTEINS” (priority 2018, published 2022).

In one experiment the test system is MDA-MB-468 cells. Kind of experiment: cell viability assay (MTS). The class given is cell-based, human.
The test system of the next experiment is SK-BR-3 cells. Kind of experiment: cell viability assay (MTS). The class given is cell-based, human. As to conditions: SK-BR-3 (HER2++); agent titrated + fixed 50 pM trastuzumab-saporin.

In general, IC50 refers to the concentration needed to halve the response being measured. Consider “cetuximab-Cys-(dendron(-L-SO1861)^4)^3,9: Dendron(-L-SO1861)^4 conjugated to cetuximab via cysteine residues”, for which, in the experiment on MDA-MB-468 cells (MDA-MB-468 (EGFR++), agent titrated + 10 pM cetuximab-saporin, read-out: IC50 cell killing), the half-maximal inhibitory concentration (IC50) turned out to be 0.4 nM. The cell killing activity result in the experiment with MDA-MB-468 cells (MDA-MB-468, agent alone) is recorded as “not induced”. For the substance “cetuximab-(Cys-S-SO1861)^3.7: SO1861-HATU (stable linker) conjugated via cysteine residues to cetuximab”, in the experiment with MDA-MB-468 cells (MDA-MB-468 (EGFR++), agent titrated + 10 pM cetuximab-saporin), the IC50 cell killing entry is “same enhanced cell killing activity”.

Turning to “trastuzumab-(Cys-L-SO1861)^2.1: SO1861-EMCH conjugated via cysteine residues to trastuzumab”, the IC50 cell killing result in the experiment with SK-BR-3 cells is “Same results were obtained”.
